The results in this text go back to BindingDB's records for 26818694 (Brookhaven National Laboratory, 2016).

By UniProt entry, the sequences of proteins in these tests, tags left out. Residues count along the entry.
UniProt B1JQH1, 1-175: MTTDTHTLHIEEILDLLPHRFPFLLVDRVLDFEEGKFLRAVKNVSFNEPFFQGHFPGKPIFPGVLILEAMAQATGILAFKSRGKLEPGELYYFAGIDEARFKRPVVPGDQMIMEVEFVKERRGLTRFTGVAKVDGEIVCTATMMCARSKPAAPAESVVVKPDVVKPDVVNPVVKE

The target of the assay is 3-hydroxyacyl-[acyl-carrier-protein] dehydratase FabZ [1-175] (Yersinia pestis, UniProt B1JQH1). As to conditions: pH 7.

Molecules are shown by their SMILES.

With `Cc1cc(O)c2c(c1)C(=O)c1cc(O)cc(O)c1C2=O` [1,3,8-trihydroxy-6-methylanthra-9,10-quinone], the concentration for half-maximal inhibition (IC50) (as a rule, the midpoint of a concentration-inhibition curve) was found to be 29.7 µM.
To `COc1cc(C)c2c(c1C=O)Oc1c(c(C)c(O)c3c1C(O)OC3=O)OC2=O` (centres undefined) [1,4-Dihydroxy-10-methoxy-5,8-dimethyl-3,7-dioxo-1,3-dihydro-7H-benzo[e]furo[3',4':3,4]benzo[b][1,4]dioxepine-11-carbaldehyde] belongs 13 µM; to `O=C1C=CC(=O)c2c(O)cccc21` [5-hydroxy-1,4-dihydronaphthalene-1,4-dione], 5.3 µM.
Consider `COc1c(O)cc2oc3cc(O)c(CC=C(C)C)c(O)c3c(=O)c2c1CC=C(C)C` [Mangostin], for which the IC50 was found to be 6.1 µM.
